# Data as given in PubChem BioAssay AID624099 (ICCB-Longwood, 2012)
# Assay: 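Knock-downs relieving repression by E2 of an HPV18 LCR luciferase reporter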 (primary screen)
# System: human C33A cervical carcinoma cells (HPV-negative) stably expressing BPV1 E2 and an HPV18 LCR luciferase reporter
# Knock-down reagent: siRNA pool against human genes, 40 nM
# Time to read-out: 72 h
# Read-out: 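Per-well luciferase luminescence, z-scored on each plate against the plate mean and SD with control wells left out, then averaged across three replicate plates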
# Scale: mean z-score and z-score: higher = stronger reporter signal, weaker E2 silencing
# Hit rule: 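Mean z ≥ 2 together with z ≥ 2 in two or more of the three replicates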
# The deposit covers about 21,000 reagents; this is a random part of them. 497 of all reagents (2.4%) count as active. 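Higher z means weaker E2 silencing; only reporter increases were scored, and knock-downs that hurt cell survival may mask genuine repressor factors.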 Unmarked entries are inactive. The numbers tell different reagents against one gene apart.
gene knocked down,reagent,mean z-score,"z-score, replicate A","z-score, replicate B","z-score, replicate C"
C20orf173 (GeneID 140873),1,1.5,1.67,1.14,1.69
ESRRG (GeneID 2104),1,-0.06,-0.07,-0.08,-0.02
MAB21L1 (GeneID 4081),1,-0.03,-0.07,-0.19,0.17
DEFB119 (GeneID 245932),1,0.29,0.51,-0.11,0.46
KAT6B (GeneID 23522),1,0.05,0.45,-0.09,-0.2
TSPY1 (GeneID 7258),1,0.76,0.93,0.53,0.84
HEXIM2 (GeneID 124790),1,-0.66,-1.11,-0.43,-0.42
BLOC1S3 (GeneID 388552),1,0.83,0.28,1.22,0.99
GMNN (GeneID 51053),1,1.47,1.69,1.52,1.21
HEATR9 (GeneID 256957),1,-0.18,-0.42,-0.09,-0.03
CH25H (GeneID 9023),1,0.44,0.52,0.42,0.38
RSAD1 (GeneID 55316),1,0.07,-0.11,0.37,-0.06
BEND6 (GeneID 221336),1,0.8,0.85,0.9,0.66
ZFYVE1 (GeneID 53349),1,0.55,0.82,0.44,0.4
ETV6 (GeneID 2120),1,4.61 (active),4.75,4.57,4.52
ACTR1B (GeneID 10120),1,-0.16,-0.22,-0.37,0.1
SLC51A (GeneID 200931),1,-0.29,-0.71,-0.52,0.37
TRIM2 (GeneID 23321),1,-1.21,-1.25,-1.29,-1.09
TFCP2L1 (GeneID 29842),1,0.21,0.6,0.56,-0.54
EIF4A3 (GeneID 9775),1,0.12,0.22,0.24,-0.11
MRGPRX1 (GeneID 259249),1,1.53,1.19,1.88,1.5
UNC13D (GeneID 201294),1,0.1,0.19,0.24,-0.12
LOC391144 (retired record) (GeneID 391144),1,0.99,1.5,0.72,0.75
LOC388952 (retired record) (GeneID 388952),1,0.02,-0.2,0.09,0.18
FADD (GeneID 8772),1,-1.12,-1.13,-1.09,-1.14
LOC401544 (retired record) (GeneID 401544),1,-2.13,-1.98,-2.21,-2.21
THPO (GeneID 7066),1,0.91,0.76,0.96,1.01
S1PR2 (GeneID 9294),1,-0.43,-0.32,-0.43,-0.55
AASDHPPT (GeneID 60496),1,2.54 (active),2.23,2.77,2.62
LZTR1 (GeneID 8216),1,-1.33,-1.34,-1.25,-1.41
PLGLB2 (GeneID 5342),1,0.8,0.67,0.69,1.04
TAF3 (GeneID 83860),1,-2.14,-2.4,-2.06,-1.95
CENPA (GeneID 1058),1,-0.52,-0.6,-0.55,-0.41
PPP1R10 (GeneID 5514),1,-0.37,-0.01,-0.29,-0.83
TENT4B (GeneID 64282),1,1.83,2,1.96,1.54
UGT1A9 (GeneID 54600),1,2.19 (active),1.91,2,2.67
HARS2 (GeneID 23438),1,0.39,0.55,0.24,0.39
CD83 (GeneID 9308),1,0.13,0.11,0.3,-0.02
C9orf78 (GeneID 51759),1,-0.05,0.02,0.19,-0.37
LOC392549 (retired record) (GeneID 392549),1,1.66,1.12,1.69,2.17
BET1 (GeneID 10282),1,1.44,1.54,1.37,1.41
PPT2 (GeneID 9374),1,-1.43,-1.26,-1.38,-1.65
CNP (GeneID 1267),1,-0.35,-0.37,-0.22,-0.46
SDK2 (GeneID 54549),1,-0.77,-0.87,-0.8,-0.63
LOC392512 (retired record) (GeneID 392512),1,0.6,0.38,0.6,0.82
TRIM28 (GeneID 10155),1,-1.18,-1.03,-1.09,-1.41
LINC00174 (GeneID 285908),1,-0.07,-0.16,-0.19,0.15
ANK1 (GeneID 286),1,0.71,0.51,0.77,0.84
ZNF488 (GeneID 118738),1,-1.2,-1.18,-1.21,-1.2
DIDO1 (GeneID 11083),1,2.31 (active),1.95,2.51,2.49
DIDO1 (GeneID 11083),2,-0.05,-0.01,-0.32,0.19
LOC399917 (retired record) (GeneID 399917),1,0.51,0.72,0.48,0.34
CCDC121 (GeneID 79635),1,0.57,0.95,0.59,0.17
SAT2 (GeneID 112483),1,0.29,0.34,0.39,0.15
LOC401520 (retired record) (GeneID 401520),1,0.17,0.28,0.12,0.11
ENTPD8 (GeneID 377841),1,-0.12,-0.01,-0.16,-0.2
FBLIM1P2 (GeneID 401679),1,-0.03,0.19,-0.06,-0.23
